Measured values from several laboratories, pooled; numbers as filed in NIAID ChemDB.

Shared fields: host cell toxicity; cells: HeLa; endpoint: CC50

CCn: concentration that lowers growth or viability of the cells by n%.

{"smiles": "Nc1ccn([C@H]2CC[C@@H](CO)O2)c(=O)n1", "value": ">100 µM"}
{"smiles": "Nc1ncnc2c1ccn2[C@@H]1O[C@H](CO)[C@@H](O)[C@H]1O", "value": "1 µg/mL"}
{"smiles": "CN1C(=O)[C@]23CC4=CC=C[C@H](O)[C@H]4N2C(=O)[C@@]1(CO)S3", "value": "0.9 µg/mL"}
{"smiles": "NCc1cccc(-c2cc(=O)n(O)c3ncccc23)c1", "value": "0.26 µM"}
{"smiles": "COc1ccc(CNC(=O)c2c(O)cc(OCC=C(C)C)cc2OC)cc1", "value": "≥25 µg/mL"}
{"smiles": "C=C[C@]1(CO)O[C@@H](n2cc(C)c(=O)[nH]c2=O)C[C@@H]1O", "value": ">100 µM"}
{"smiles": "COC(=O)c1cccc(N/C(SC)=C(\\C#N)S(=O)(=O)c2ccccc2)c1", "read by": "MTT / absorbance", "value": "5.67 µM"}
{"smiles": "N/C(=N/O)c1cn([C@H]2C[C@H](O)[C@@H](CO)O2)c2ncnc(N)c12", "value": "90 µM"}
{"smiles": "CCCCCCCCCCCCCCCCOP(=O)([O-])OCCC[N+](C)(C)Cc1ccccc1", "read by": "MTT", "value": "62.1 µM"}
{"smiles": "NC(=S)c1cn([C@H]2C[C@H](O)[C@@H](CO)O2)c2ncnc(N)c12", "value": "3 µM"}
{"smiles": "C=C1CCC2CC(C(=C)C)C2(C)CCC(C(=C)C(=O)O)CC1CC=C(C)C", "value": "202 µg/mL"}
{"smiles": "Nc1nccc2c1ncn2[C@@H]1C[C@H](CO)[C@@H](O)[C@H]1O", "value": "1.3 µg/mL"}
{"smiles": "CCCCSc1n[nH]c(-c2ccc(O)cc2)n1", "read by": "MTT", "value": "23.56 µg/mL"}
{"smiles": "CCOc1cc(O)c(C(=O)/C=C/c2ccc(OC)cc2)c(OC)c1", "value": "≥6.25 µg/mL"}
{"smiles": "Nc1ncnc2c1ncn2[C@H]1[C@H](O)[C@H](O)[C@]2(CO)O[C@H]12", "read by": "trypan blue", "value": ">500 µg/mL"}
{"smiles": "COc1cc(C2C3(O)C(O)C4CC2(O)C(O)(C(=O)O4)C3C(=O)c2ccccc2)oc(=O)c1", "value": ">100 µg/mL"}
{"smiles": "O=C(NS(=O)(=O)OC[C@H]1O[C@@H](n2ccc(=O)[nH]c2=O)[C@H](O)[C@@H]1O)O[C@H]1O[C@H](COC(=O)c2ccccc2)[C@@H](OC(=O)c2ccccc2)[C@H](OC(=O)c2ccccc2)[C@H]1OC(=O)c1ccccc1", "value": ">220 µM"}
{"smiles": "CC(C)[Si]1(C(C)C)OC[C@H]2O[C@@H](n3cnc4cc(Cl)c(Cl)cc43)[C@@H](O)[C@H]2O[Si](C(C)C)(C(C)C)O1", "value": "40–400 µg/mL"}
{"smiles": "NC(=O)c1cn([C@@H]2O[C@H](CO)[C@@H](O)[C@@H]2O)c2ncnc(N)c12", "value": "15 µM"}
{"smiles": "CS/C(Nc1cccc(C(F)(F)F)c1)=C(/C#N)S(=O)(=O)c1ccc(Cl)cc1", "read by": "MTT / absorbance", "value": "3.05 µM"}
{"smiles": "CCCCCCCCCCCCCCCCOP(=O)([O-])OCC[N+](C)(C)Cc1ccccc1", "read by": "MTT", "value": "55.7 µM"}
{"smiles": "O=c1cc(N2CCc3ncccc3C2)c2cccnc2n1O", "value": "0.42 µM"}
{"smiles": "CCCCCCCCCCCCCCCC[N+](C)(C)Cc1ccccc1", "read by": "MTT", "value": "2.8 µM"}
{"smiles": "C#C[C@]1(CO)O[C@@H](n2cnc3c(=O)[nH]cnc32)C[C@@H]1O", "read by": "MTT", "value": ">200 µM"}
{"smiles": "CCSc1nnc(-c2ccc(F)cc2)o1", "read by": "MTT", "value": "14.42 µg/mL"}
{"smiles": "CCCOC(=O)C(CCSC[C@H]1O[C@@H](n2ccc3c(N)ncnc32)[C@H](O)[C@@H]1O)NC(=O)COC", "value": ">200 µg/mL"}
{"smiles": "COc1ccc(N2CCN(c3cccc(C)c3)CC2)nn1", "value": ">50 µg/mL"}
{"smiles": "CC(C)OC(=O)C(CCSC[C@H]1O[C@@H](n2ccc3c(N)ncnc32)[C@H](O)[C@@H]1O)NC(=O)C(F)(F)F", "value": "200 µg/mL"}
{"smiles": "C[C@H]1[C@@H](CCCOP(=O)(O)Oc2ccccc2)O[C@@H]2OC3(C)CC[C@H]4[C@H](C)CC[C@@H]1[C@@]24OO3", "value": "68.4 µM"}
{"smiles": "CC1(C)[C@@H]2CC[C@@]1(C)C(=O)[C@H]2Br", "value": "50–100 µg/mL"}
{"smiles": "CCCOC(=O)C(CCSC[C@H]1O[C@@H](n2ccc3c(N)ncnc32)[C@H](O)[C@@H]1O)NC(=O)C(F)(F)F", "value": ">200 µg/mL"}
{"smiles": "NC(=S)c1cn([C@@H]2O[C@H](CO)[C@@H](O)[C@@H]2O)c2ncnc(N)c12", "value": "2.4 µM"}
{"smiles": "CCS/C(Nc1cccc(C(F)(F)F)c1)=C(/C#N)S(=O)(=O)c1ccccc1", "read by": "MTT / absorbance", "value": "5.43 µM"}
{"smiles": "NC(=O)c1c[se]c([C@@H]2O[C@H](CO)[C@@H](O)[C@H]2O)n1", "value": "7.9 µM"}
{"smiles": "CCOC(=O)C(CCSC[C@H]1O[C@@H](n2ccc3c(N)ncnc32)[C@H](O)[C@@H]1O)NC(=O)C(F)(F)F", "value": "100 µg/mL"}
{"smiles": "CCC(=C/C(C)C/C=C/C(C)=C/C(COC(C)=O)C(=O)C(C)C(OC(C)=O)C(C)C/C(C)=C/C(=O)O)/C=C/C1OC(=O)C=CC1C", "value": "0.007 µM"}
{"smiles": "Nc1ncnc2c1ncn2[C@@H]1C=C(CO)[C@@H](O)[C@H]1O", "value": "94 µg/mL"}
{"smiles": "C/C=C(\\C)CC(C)C(O)C(C)C(=O)C(C)/C=C(C)/C=C/CC(C)C(=O)O", "value": "0.171 µM"}
{"smiles": "C[C@]1(CO)O[C@@H](n2ccc(N)nc2=O)C[C@@H]1O", "read by": "MTT", "value": ">200 µM"}
{"smiles": "CCOC(=O)/C=C/[C@H](C[C@@H]1CCNC1=O)NC(=O)[C@@H](CC(=O)[C@@H](NC(=O)c1cc(C)on1)C(C)C)Cc1ccc(F)cc1", "value": ">100 µM"}
{"smiles": "CCCc1cccc(N/C(SC)=C(\\C#N)S(=O)(=O)c2ccccc2)c1", "read by": "MTT / absorbance", "value": "26.3 µM"}
{"smiles": "CCC(=C/C(C)C/C=C/C(C)=C/C(COC(C)=O)C(=O)C(C)C(OC(C)=O)C(C)C/C(C)=C/C(=O)OC)/C=C/C1OC(=O)C=CC1C", "value": "0.03 µM"}
{"smiles": "O[C@@H]1CC(n2cnc3cc(Cl)c(Cl)cc32)OC[C@@H]1O", "value": "400 µg/mL"}
{"smiles": "O=C1N2C3C(=COC=CC3O)CC23SSC12CC1=COC=CC(O)C1N2C3=O", "value": "0.9 µg/mL"}
{"smiles": "OC[C@H]1O[C@@H](n2cnc3cc(Cl)c(Cl)cc32)[C@H](O)[C@H]1O", "value": "40–200 µg/mL"}
{"smiles": "CC(=O)OC1C=COC=C2C[C@@]34SC(=S)S[C@]5(CC6=COC=CC(OC(C)=O)C6N5C3=O)C(=O)N4C21", "value": ">100 µg/mL"}
{"smiles": "O=C(/C=C/c1ccc(O)c(O)c1)O[C@@H]1C[C@](OC(=O)/C=C/c2ccc(O)c(O)c2)(C(=O)O)C[C@@H](O)[C@H]1O", "value": ">400 µM"}
{"smiles": "O=c1[nH]cnc2c1ncn2[C@@H]1C=C(CO)[C@@H](O)[C@H]1O", "value": ">5 µg/mL"}
{"smiles": "COc1cc(O)c2c(=O)cc(-c3ccc(OC)c(-c4c(O)cc(O)c5c(=O)cc(-c6ccc(O)cc6)oc45)c3)oc2c1", "value": "12.8 µg/mL"}
{"smiles": "C#C[C@]1(CO)O[C@@H](n2cc(I)c(=O)[nH]c2=O)C[C@@H]1O", "value": ">200 µM"}
{"smiles": "N#C/C(=C(\\Nc1cccc(C(F)(F)F)c1)Sc1ccccc1)S(=O)(=O)c1ccccc1", "read by": "MTT / absorbance", "value": "1 µM"}
{"smiles": "CCCOC(=O)C(N)CCSC[C@H]1O[C@@H](n2ccc3c(N)ncnc32)[C@H](O)[C@@H]1O", "value": "100 µg/mL"}
{"smiles": "OC[C@H]1O[C@@H](n2cnc3cc(Cl)c(Cl)cc32)[C@@H](O)[C@@H]1O", "value": "≥400 µg/mL"}
{"smiles": "CCCCSc1n[nH]c(-c2ccccc2C)n1", "read by": "MTT", "value": "12.8 µg/mL"}
{"smiles": "CC(=O)OC1C=COC=C2C[C@@]34S[C@]5(CC6=COC=CC(OC(C)=O)C6N5C3=O)C(=O)N4C21", "value": "14.4 µg/mL"}
{"smiles": "CS/C(Nc1ccccc1)=C(/C#N)S(=O)(=O)c1ccccc1", "read by": "MTT / absorbance", "value": ">100 µM"}
{"smiles": "CSS[C@@]12CC3=COC=CC(OC(C)=O)C3N1C(=O)[C@]1(SSC)CC3=COC=CC(OC(C)=O)C3N1C2=O", "value": "20 µg/mL"}
{"smiles": "C[C@@]1(O)[C@@H](CO)O[C@@H](n2ccc(=O)[nH]c2=O)[C@@H]1O", "read by": "trypan blue", "value": ">500 µg/mL"}
{"smiles": "CCCCC[C@H](O)/C=C/[C@H]1C=CC(=O)[C@@H]1CCCCCCC(=O)O", "value": ">4 µg/mL"}
{"smiles": "CC(=C/C(C)C/C=C/C(C)=C/C(C)C(=O)C(C)C(O)C(C)C/C(C)=C/C(=O)O)/C=C/C1OC(=O)C=CC1C", "value": "0.0026 µM"}
{"smiles": "Clc1ccc(-c2nc(SCC3CC3)n[nH]2)cc1", "read by": "MTT", "value": "5.8 µg/mL"}
{"smiles": "C[C@]1(CO)O[C@@H](n2ccc(N)nc2=O)C[C@@H]1O", "value": ">200 µM"}
{"smiles": "Oc1[nH]c2ccccc2c1/C=N/N=C/c1ccco1", "read by": "MTS", "value": "35.4 µM"}
{"smiles": "C#Cc1c(C(N)=O)ncn1[C@@H]1O[C@H](CO)[C@@H](O)[C@H]1O", "read by": "MTT / neutral red", "value": "13 µg/mL"}
{"smiles": "CS/C(Nc1cc(C(F)(F)F)cc(C(F)(F)F)c1)=C(/C#N)S(=O)(=O)c1ccccc1", "read by": "MTT / absorbance", "value": ">100 µM"}
{"smiles": "OCCOC([C@H](O)CO)n1cnc2cc(Cl)c(Cl)cc21", "value": "≥400 µg/mL"}
{"smiles": "C[C@@H]1O[C@@H]1P(=O)(O)O", "value": "200 µg/mL"}
{"smiles": "O=c1[nH]cnc2c1ncn2[C@H]1CC[C@@H](CO)O1", "value": ">100 µM"}
{"smiles": "S=c1nc(-c2ccco2)[nH][nH]1", "read by": "MTT", "value": ">50 µg/mL"}
{"smiles": "C#C[C@]1(CO)O[C@@H](n2cc(C)c(=O)[nH]c2=O)C[C@@H]1O", "value": ">200 µM"}
{"smiles": "NC(=O)c1csc(C2OC(CO)C(O)C2O)c1", "value": "90 µM"}
{"smiles": "CCC(=C/C(C)C/C=C/C(C)=C/C(C)C(=O)C(C)C(O)C(C)CC1=CC(=O)OC1)/C=C/C1OC(=O)C=CC1C", "value": "0.0017 µM"}
{"smiles": "Nc1ncnc2c1ccn2[C@@H]1O[C@H](CO)[C@H](O)[C@H]1O", "value": "4 µg/mL"}
{"smiles": "CC(C)NS(=O)(=O)c1nc(-c2ccc(Cl)cc2)n[nH]1", "read by": "MTT", "value": ">100 µg/mL"}
{"smiles": "CCCCCCCCCCCCCCCCOP(=O)([O-])OCCC[N+](C)(C)C", "read by": "MTT", "value": "84.4 µM"}
{"smiles": "N#Cc1c(C(N)=O)ncn1[C@@H]1O[C@H](CO)[C@@H](O)[C@H]1O", "read by": "trypan blue", "value": ">500 µg/mL"}

For reference, 5 entries again:

smiles	read by	value
OC[C@H]1O[C@@H](n2cnc3cc(Cl)c(Cl)cc32)[C@H](O)[C@H]1O	-	40–200 µg/mL
COc1cc(C2C3(O)C(O)C4CC2(O)C(O)(C(=O)O4)C3C(=O)c2ccccc2)oc(=O)c1	-	>100 µg/mL
C[C@]1(CO)O[C@@H](n2ccc(N)nc2=O)C[C@@H]1O	-	>200 µM
CC(=C/C(C)C/C=C/C(C)=C/C(C)C(=O)C(C)C(O)C(C)C/C(C)=C/C(=O)O)/C=C/C1OC(=O)C=CC1C	-	0.0026 µM
COc1ccc(N2CCN(c3cccc(C)c3)CC2)nn1	-	>50 µg/mL

Conditions beyond the fields shown may differ between rows. Blank or dashed fields: not listed here. Two numbers with a dash give a range or band.